Pooled drug test results. Numbers come from NIAID ChemDB, via PubChem.

Shared fields: growth or infection tests; agent: HIV-1; endpoint: EC50

Lines come from different laboratories, so protocols vary. ECn: concentration that inhibits the pathogen or its effect by n%.

{"SMILES": "COc1ccnc2[nH]cc(C(=O)C(=O)N3C4CC3CN(C(=O)c3ccccc3)C4)c12", "strain": "QH0692", "cells": "TZM-bl", "method": "luciferase", "value": ">>250 µM"}
{"SMILES": "C/C(=C(/CCO)SS/C(CCO)=C(\\C)N(C=O)Cc1cnc(C)nc1N)N(C=O)Cc1cnc(C)nc1N", "cells": "CEM-SS", "value": ">100 µM"}
{"SMILES": "Nc1sccc1S(=O)(=O)c1ccc(F)cc1", "strain": "IIIB", "cells": "CEM + CEM/O", "method": "cytopathic effect / MTT", "value": ">8 µg/mL"}
{"SMILES": "Clc1cc(CN2CCCNCCNCCCNCC2)cc(Cl)n1", "strain": "NL4-3 X4", "cells": "U87-CD4-CCR5 + U87", "method": "p24", "value": "17.6 µM"}
{"SMILES": "COc1ccc2sc3c(c2c1)N(Cc1cccc(Cl)c1)CCNC3=O", "cells": "OM-10.1", "method": "p24", "value": "<0.04 µM"}
{"SMILES": "Cc1ccc(C(=O)Nc2ccc(S(=O)(=O)O)c3cc(S(=O)(=O)O)cc(S(=O)(=O)O)c23)cc1NC(=O)c1cccc(NC(=O)Nc2cccc(C(=O)Nc3cc(C(=O)Nc4ccc(S(=O)(=O)O)c5cc(S(=O)(=O)O)cc(S(=O)(=O)O)c45)ccc3C)c2)c1", "strain": "HTLV-III/LAV", "cells": "ATH8", "method": "cytopathic effect", "value": "<50 µg/mL"}
{"SMILES": "O=C1NCCN(Cc2ccccc2)c2c1sc1ccc([N+](=O)[O-])cc21", "cells": "OM-10.1", "method": "p24", "value": "0.04 µM"}
{"SMILES": "C[C@H](Cn1cnc2c(N)ncnc21)OCP(=O)(O)O", "cells": "TZM-bl", "value": "6.1 µM"}
{"SMILES": "COCc1nc(Nc2ccc(C#N)cc2)nc(Nc2c(C)cc(/C=C/C#N)cc2C)c1C(=O)NCc1cccs1", "strain": "MDR", "cells": "MT4 CMV-EGFP", "value": "0.38 µM"}
{"SMILES": "C=C(C)[C@@H]1CC[C@]2(C(=O)NCCCCCCCC(=O)N[C@@H](CC(C)C)[C@@H](O)CC(=O)O)CC[C@]3(C)[C@H](CC[C@@H]4[C@@]5(C)CC[C@H](O)C(C)(C)[C@@H]5CC[C@]43C)[C@@H]12", "strain": "LAI", "mutations": "GP41-K106R", "cells": "HeLa P4 + HeLa", "method": "syncytia", "value": "<10 µM"}
{"SMILES": "COC(=O)c1ccccc1S(=O)(=O)c1ccsc1NC=O", "strain": "IIIB", "cells": "CEM + CEM/O", "method": "cytopathic effect / MTT", "value": "18 µg/mL"}
{"SMILES": "C[C@]1(CO)O[C@@H](n2cnc3c(N)ncnc32)C[C@@H]1O", "mutations": "(delta)Env", "cells": "HOS", "method": "luciferase", "value": "0.063 µM"}
{"SMILES": "C=CCN1CCNC(=O)c2oc3ccccc3c21", "cells": "OM-10.1", "method": "p24", "value": "2.1 µM"}
{"SMILES": "COCc1nc(Nc2ccc(C#N)cc2)nc(Nc2c(C)cc(/C=C/C#N)cc2C)c1C(=O)N1CCN(C)CC1", "strain": "K103N + Y181C", "cells": "MT4 CMV-EGFP", "value": "1.82 µM"}
{"SMILES": "Cc1cn([C@H]2C=C[C@@H](CO)O2)c(=O)[nH]c1=O", "strain": "IIIB", "cells": "CEM + CEM TK-", "method": "p24", "value": "0.556 µM"}
{"SMILES": "CC1CC(C)CN(S(=O)(=O)c2ccccc2[N+](=O)[O-])C1", "strain": "B-HXB2", "cells": "HeLa", "method": "GFP / fluorescence", "value": "0.84 µM"}
{"SMILES": "COCCNC(=O)c1c(COC)nc(Nc2ccc(C#N)cc2)nc1Oc1c(C)cc(/C=C/C#N)cc1C", "strain": "K103N+Y101C", "cells": "MT4 CMV-EGFP", "value": "0.0372 µM"}
{"SMILES": "CC(=O)c1c(C)nc(-c2ccccc2)nc1NC(=O)c1ccccc1", "strain": "A-92UG029", "cells": "HeLa", "method": "GFP / fluorescence", "value": "2 µM"}
{"SMILES": "COCc1nc(Nc2ccc(C#N)cc2)nc(Oc2c(C)cc(/C=C/C#N)cc2C)c1C(=O)NCc1ccncc1", "strain": "K103N+Y101C", "cells": "MT4 CMV-EGFP", "value": "0.0617 µM"}
{"SMILES": "COC(=O)CC(=O)Nc1sccc1S(=O)(=O)c1ccc(C)cc1", "strain": "IIIB", "cells": "CEM + CEM/O", "method": "cytopathic effect / MTT", "value": ">40 µg/mL"}
{"SMILES": "COCc1nc(Nc2ccc(C#N)cc2)nc(Nc2c(C)cc(/C=C/C#N)cc2C)c1C(=O)N(C)CCN(C)C", "strain": "MDR", "cells": "MT4 CMV-EGFP", "value": "3.63 µM"}
{"SMILES": "Cc1cc(C#N)cc(C(=O)c2ccccc2OCC(=O)Nc2ccc(S(N)(=O)=O)cc2C)c1", "strain": "WT", "cells": "HeLa MAGI + HeLa", "method": "β-galactosidase", "value": "~0.0005 µM"}
{"SMILES": "O=C(Nc1sc(Br)cc1S(=O)(=O)c1ccc(Cl)cc1)C(F)(F)F", "strain": "IIIB", "cells": "CEM + CEM/O", "method": "cytopathic effect / MTT", "value": ">8 µg/mL"}
{"SMILES": "COC[C@@H](c1ccc(C(F)(F)F)cc1)N1CCN(C2(C)CCN(C(=O)c3c(C)ncnc3C)CC2)C[C@@H]1C", "strain": "R14/S", "mutations": "G514V V535M", "cells": "TZM-bl", "value": "0.0024 µM"}
{"SMILES": "O=P(O)(O)OP(=O)(O)OP(=O)(O)OP(=O)(O)O", "strain": "IIIB", "cells": "MOLT-4/MOLT-3", "method": "syncytia", "value": ">160 µg/mL"}
{"SMILES": "CCc1c(C)c2c(c(C)c1C1=NC(=O)C(c3cc(-c4c(C)c5c(c(C)c4CC)[C@](C)(O)C[C@@H]5C)[nH]c3O)=C1)[C@H](C)C[C@]2(C)O", "cells": "CEM + CEM-4", "value": "2 µg/mL"}
{"SMILES": "COc1ccnc2[nH]cc(C(=O)C(=O)N3C4CCC3CN(C(=O)c3ccccc3)C4)c12", "strain": "QH0692", "cells": "TZM-bl", "method": "luciferase", "value": "1.2 µM"}
{"SMILES": "CC(=O)N1CCC(C(=O)N(CCCN2CCC(Cc3ccc(C(N)=O)cc3)CC2)c2ccc(C)c(Cl)c2)CC1", "strain": "92UG029", "cells": "CEMx174 5.25 M7", "method": "p24 / ELISA", "value": ">300 µM"}
{"SMILES": "CC(=O)Nc1sc([N+](=O)[O-])cc1S(=O)(=O)c1ccc(Cl)cc1", "strain": "IIIB", "cells": "CEM + CEM/O", "method": "cytopathic effect / MTT", "value": ">0.32 µg/mL"}
{"SMILES": "COC(=O)[C@H](C)NP(=O)(OC[C@@H]1C=C[C@H](n2cc(C)c(=O)[nH]c2=O)O1)Oc1ccccc1", "strain": "IIIB", "cells": "CEM + CEM TK-", "method": "RT activity", "value": "0.133 µM"}
{"SMILES": "COCc1nc(Nc2ccc(C#N)cc2)nc(Nc2c(C)cc(/C=C/C#N)cc2C)c1C(=O)NCc1ccncc1", "strain": "K103N+Y101C", "cells": "MT4 CMV-EGFP", "value": "0.0209 µM"}
{"SMILES": "C=C(C)CN1CCN(Cc2ccccc2)C(=O)c2sc3ccc(OC)cc3c21", "cells": "OM-10.1", "method": "p24", "value": "0.9 µM"}
{"SMILES": "O=C(Nc1sc(I)cc1S(=O)(=O)c1ccc(Cl)cc1)C(F)(F)F", "strain": "IIIB", "cells": "CEM + CEM/O", "method": "cytopathic effect / MTT", "value": ">8 µg/mL"}
{"SMILES": "CCN(CC)C(=S)SSC(=S)N(CC)CC", "cells": "CEM-SS", "method": "p24", "value": ">100 µM"}